The subject of the data set is SARS-CoV-2. It is filed as in vivo, K18-hACE2 mice. The conditions noted are these: Trial 2; GABA 0, 0.2 or 2.0 mg/mL groups compared.

Regarding `NCCCC(=O)O` [GABA, gamma-aminobutyric acid], the “amounts of water consumed” value is on record as “no statistically significant differences” and the longitudinal body weights entry is reported as “no statistically significant differences”.
